Measured values from several laboratories, pooled; numbers as filed in NIAID ChemDB.

Common to all: toxicity to cultured cells; read-out: CC50

Blank or dashed fields: not listed here. Neighbouring rows are from separate reports. CCn is the concentration with n% toxicity to the cells.

{"smiles": "CCCCCCCCCCCCCCCCCOC[C@H](COP1(=O)CO[C@@H](Cn2ccc(N)nc2=O)CO1)OCc1ccccc1", "cells": "DAUDI", "value": ">0.9 µM"}
{"smiles": "CCN(CC)c1ccc(-c2cn3c(=O)c4ncn([C@H]5CC(N=[N+]=[N-])[C@@H](CO)O5)c4nc3[nH]2)cc1", "cells": "PBM", "value": ">100 µM"}
{"smiles": "Nc1nc(Cl)c(-c2cc3ccccc3o2)c(N[C@@H]2C[C@H](CO)[C@@H](O)[C@H]2O)n1", "cells": "Con-1", "method": "MTS", "value": ">25 µM"}
{"smiles": "Nc1nc(NC2CC2)c2ncn(/C=C3/C[C@@H]3CO)c2n1", "cells": "MEF", "value": ">367 µM"}
{"smiles": "O=c1c2ncn([C@H]3C=C[C@@H](CO)C3)c2nc2[nH]c(-c3ccsc3)cn12", "cells": "PBM", "value": ">100 µM"}
{"smiles": "O=c1c2ncn(COC(CO)CO)c2nc2[nH]c(-c3ccc(F)cc3)cn12", "cells": "OST TK-/HSV-1 TK+", "value": "0.0032 µg/mL"}
{"smiles": "CSc1c(C#N)c2c(N)ncnc2n1COC(CO)CO", "cells": "ALEX", "value": "~800 µM"}
{"smiles": "CN1c2cc3c(cc2NC(c2ccc(C(=O)O)cc2)c2ccccc21)C(C)(C)CCC3(C)C", "cells": "HepG2-NTCPsec+", "method": "visual reading / absorbance", "value": ">25 µM"}
{"smiles": "CCOC(=O)c1sc(-c2ccccc2)nc1N1CCC(NCc2ccc(F)cc2)CC1", "cells": "RAW 264.7", "method": "MTT", "value": "6.23 µM"}
{"smiles": "O=C(Nc1cccc(-c2n[nH]c(=O)n2C2CCCCC2)c1)Nc1ccc(F)c(Cl)c1", "cells": "NHDF", "value": "14 µM"}
{"smiles": "CC(C)N(Cc1cccc(OCCCCCC(=O)OC(=O)O)c1)C(=O)c1ccc(-c2cccc(N(C)C)c2)cc1", "cells": "HEK 293", "value": ">20 µM"}
{"smiles": "CCCCCCCC/C=C\\CCCCCCCCOCCOP(=O)(O)CO[C@H](CO)Cn1ccc(N)nc1=O", "cells": "BCBL-1", "value": "1.7 µM"}
{"smiles": "Cc1cc(Cl)ccc1NC(=O)Nc1cc(Br)cc(C2=NNC(=O)C2(C)C)c1", "cells": "NHDF", "value": ">14 µM"}
{"smiles": "CCCSc1nc(N)nc2c1ncn2/C=C1/C[C@@H]1CO", "cells": "HSB-2", "value": "61 µM"}
{"smiles": "Cc1nc(NCCCCNc2ccnc3cc(Cl)ccc23)nc(-c2ccccc2)c1C(=O)OC(C)C", "cells": "MDCK cells", "method": "MTS", "value": "0.6 µM"}
{"smiles": "Nc1nc2c(ncn2/C=C2\\CC2(CO)CO)c(=O)[nH]1", "cells": "HSB-2", "value": ">190 µM"}
{"smiles": "Cc1ccc(C(=O)Nc2ccc(S(=O)(=O)O)c3cc(S(=O)(=O)O)cc(S(=O)(=O)O)c23)cc1NC(=O)c1cccc(NC(=O)Nc2cccc(C(=O)Nc3cc(C(=O)Nc4ccc(S(=O)(=O)O)c5cc(S(=O)(=O)O)cc(S(=O)(=O)O)c45)ccc3C)c2)c1", "cells": "HuT-78", "value": "55 µM"}
{"smiles": "CCOC(=O)c1c(CSc2ccccc2)n(C)c2cc(Br)c(O)c(CN(C)C)c12.Cl", "cells": "Huh7.3", "method": "ATP", "value": "18.9 µM"}
{"smiles": "CC(C)Nc1nc2cc(Cl)c(Cl)cc2n1[C@H]1O[C@@H](CO)[C@H](O)[C@@H]1O", "cells": "CBL", "method": "neutral red", "value": ">98 µM"}
{"smiles": "Nc1ccn([C@H]2CC[C@@H](CO)O2)c(=O)n1", "cells": "ATH8", "value": ">10 µM"}
{"smiles": "OC[C@H]1O[C@@H](n2c(Br)nc3cc(Cl)c(Cl)cc32)[C@H](O)[C@@H]1O", "cells": "CBL", "value": ">87 µM"}
{"smiles": "CCOC(=O)c1c(CSc2ccccc2)n(C)c2cc(C#N)c(O)c(CN(N3CCN(CCOCCO)CC3)N3CCN(CCOCCO)CC3)c12", "cells": "MDBK", "method": "ATP", "value": "68 µM"}
{"smiles": "Nc1nc2ncn(/C=C3/C(F)C3(CO)CO)c2c(=O)[nH]1", "cells": "Akata", "value": ">100 µM"}
{"smiles": "CCOC(=O)c1c(CSc2ccccc2)n(C)c2cc(Br)c3c(c12)CN(C)CO3", "cells": "MDBK", "method": "ATP", "value": "17.5 µM"}
{"smiles": "CCOC(=O)CCCCCOc1cccc(CN(C(=O)c2ccc(-c3cccc([N+](=O)[O-])c3)cc2)C(C)C)c1", "cells": "RAJI", "value": ">20 µM"}
{"smiles": "Cc1cc(CCCOc2c(C)cc(-c3noc(C(F)(F)F)n3)cc2C)on1", "cells": "OHIO HELA-I", "value": "30 µg/mL"}
{"smiles": "CCCN(Cc1cccc(OCCCCCC(=O)OCC)c1)C(=O)c1ccc(Br)cc1", "cells": "RAJI", "value": ">20 µM"}
{"smiles": "CCCCCSc1nc(N)nc2c1ncn2/C=C1/C[C@@H]1CO", "cells": "MEF", "value": "156 µM"}
{"smiles": "Cc1ccc(O)c(C(=O)Nc2ncc(Cl)s2)c1", "cells": "2.2.15", "value": ">100 µM"}
{"smiles": "Cc1cc(Cl)ccc1NC(=O)Nc1cccc(-c2n[nH]c(=O)n2C(C)c2ccccc2)c1", "cells": "NHDF", "value": "21 µM"}
{"smiles": "CCc1c(C)[nH]c(=O)c(N(C)C)c1Cc1cc(C)cc(C)c1", "cells": "P4", "value": ">100 µM"}
{"smiles": "Nc1nc2c(ncn2COCCO)c(=O)[nH]1", "cells": "GPE", "value": "1200 µM"}
{"smiles": "CC(=O)c1cccc(-c2ccc(C(=O)N(Cc3cccc(OCCCCCC(=O)OC(=O)O)c3)C(C)C)cc2)c1", "cells": "RAJI", "value": ">20 µM"}
{"smiles": "CCOC(=O)c1c(C)n(C)c2cc(F)c(O)cc12", "cells": "Huh7.3", "method": "ATP", "value": "105.7 µM"}
{"smiles": "O=C(O)C1=CC(=C(c2ccc(O)c(C(=O)O)c2)c2ccc(O)c(C(=O)O)c2)C=CC1=O", "cells": "HuT-78", "value": "13 µM"}
{"smiles": "CC(C)[C@@H]1NC(=O)[C@@H](C(C)C)OC(=O)[C@H](C(C)C)N(C)C(=O)[C@@H](C(C)C)OC(=O)[C@H](C(C)C)N(C)C(=O)[C@@H](C(C)C)OC1=O", "cells": "NCI-H187", "method": "absorbance", "value": "1.94 µM"}
{"smiles": "CC(C)N(Cc1cccc(OCCCCCC(=O)OC(=O)O)c1)C(=O)c1ccc(-c2cccc(C(F)(F)F)c2)cc1", "cells": "HepG2", "value": ">20 µM"}
{"smiles": "O=c1c2ncn(COC(CO)CO)c2nc2[nH]c(-c3ccc(C(F)(F)F)cc3)cn12", "cells": "OST TK-", "value": ">500 µg/mL"}
{"smiles": "CCCN(Cc1ccc(OCC(=O)O)cc1)C(=O)c1ccc(-c2ccc3c(c2)OCO3)cc1", "cells": "RAJI", "value": ">20 µM"}
{"smiles": "COc1ccc2[nH]c(=O)c(CN(Cc3cccnc3)S(=O)(=O)c3cccc4nsnc34)cc2c1", "cells": "U1", "method": "MTT", "value": ">10 µM"}
{"smiles": "CCOC(=O)c1c(CO)n(C)c2cc(-c3cccnc3)c(O)c(CN(C)C)c12", "cells": "Huh7.3", "method": "ATP", "value": "100 µM"}
{"smiles": "Nc1ncnc2c1c(Br)cn2COCCO", "cells": "GPE", "value": "700 µg/mL"}
{"smiles": "CCCCC(C)(C)[C@H](O)/C=C/[C@H]1C=CC(=O)[C@@H]1CCCCCCC(=O)O", "cells": "VB", "method": "cell count", "value": ">8 µg/mL"}
{"smiles": "CCOC(=O)c1c(C)nc(NCCCCNc2ccnc3cc(Cl)ccc23)nc1-c1ccc(Cl)cc1", "cells": "MDCK cells", "method": "MTS", "value": "2.2 µM"}
{"smiles": "Nc1ccn(C[C@@H](CO)OCP(=O)(O)O)c(=O)n1", "cells": "BCBL-1", "value": ">159 µM"}
{"smiles": "Nc1ccn(C[C@@H](CO)OCP(=O)(O)O)c(=O)n1", "cells": "CBL", "method": "neutral red", "value": ">159 µM"}
{"smiles": "CCCCCCCCCCCCOCCCOP(=O)(O)CO[C@H](CO)Cn1ccc(N)nc1=O", "cells": "BCBL-1", "value": ">1 µM"}
{"smiles": "Nc1nc2c(ncn2C[C@@H]2CC[C@@H](P(=O)(O)O)O2)c(=O)[nH]1", "cells": "HS68", "value": "<10 µg/mL"}
{"smiles": "CCCCCCCCCCCCOCCCOP1(=O)CO[C@@H](Cn2ccc(N)nc2=O)CO1", "cells": "BCBL-1", "value": ">1 µM"}
{"smiles": "CCc1cn([C@@H]2C[C@H](F)[C@@H](CO)O2)c(=O)[nH]c1=O", "cells": "F5000 (human embryo)", "value": "500 µM"}
{"smiles": "COc1cc(OC)cc(N(C)c2cc(OP(=O)(O)OP(=O)(O)O)c(N)cc2C(=O)O)c1", "cells": "Huh 5-2", "value": ">50 µg/mL"}
{"smiles": "CC(C)N(Cc1cccc(OCCCCCC(=O)OC(=O)O)c1)C(=O)c1ccc(-c2ccncc2)cc1", "cells": "HEK 293", "value": ">20 µM"}
{"smiles": "Cc1cn([C@H]2C[C@H](N=[N+]=[N-])[C@@H](CO)O2)c(=O)[nH]c1=O", "cells": "1A2", "method": "tetrazolium", "value": ">1 µM"}
{"smiles": "O=C(Nc1cccc(Cl)c1)Nc1cccc(-c2n[nH]c(=O)n2C2CCCCC2)c1", "cells": "NHDF", "value": "31 µM"}
{"smiles": "CCOC(=O)c1cnc(NCCCCNc2ccnc3cc(Cl)ccc23)nc1C", "cells": "MDCK cells", "method": "MTS", "value": "10.3 µM"}
{"smiles": "O=c1c2ncn(COCCO)c2nc2[nH]c(-c3ccc(C(F)(F)F)cc3)cn12", "cells": "OST TK-", "value": "368 µg/mL"}
{"smiles": "CCOC(=O)CN1N=C(c2cccc(NC(=O)Nc3ccc(Cl)cc3C)c2)C(C)(C)C1=O", "cells": "NHDF", "value": "19.2 µM"}

The first 3 rows once more:

| smiles | cells | method | value |
|---|---|---|---|
| CCCCCCCCCCCCCCCCCOC[C@H](COP1(=O)CO[C@@H](Cn2ccc(N)nc2=O)CO1)OCc1ccccc1 | DAUDI |  | >0.9 µM |
| CCN(CC)c1ccc(-c2cn3c(=O)c4ncn([C@H]5CC(N=[N+]=[N-])[C@@H](CO)O5)c4nc3[nH]2)cc1 | PBM |  | >100 µM |
| Nc1nc(Cl)c(-c2cc3ccccc3o2)c(N[C@@H]2C[C@H](CO)[C@@H](O)[C@H]2O)n1 | Con-1 | MTS | >25 µM |